This is a selection; strong and weak results do not stand in their true shares. Inconclusive results are not listed. Activity calls are given as the source filed them. Calls follow the shape of the full dose curve; tested in HEK293 cells.
Test: qHTS for Inhibitors of binding or entry into cells for Lassa Virus; also: nearly all actives have a fitted effect of over 50% in size
Conditions: Lassa virus pseudotype entry inhibition, cell reporter; at 37.9 µM (top of the series) unless noted
% is scaled to controls: 0 for no effect and ±100 for the full control effect.

Compound | activity change, negative = inhibition
Nc1ccc([As](=O)(O)c2ccc([N+](=O)[O-])cc2)cc1 | inactive: 13.3%
C(Cc1nn[nH]n1)Cc1nn[nH]n1 | inactive: 11.3%
O=C(OC1CN2CCC1CC2)c1cccc(Cl)c1 (stereo not drawn) | inactive: -14.3%
O=[N+]([O-])c1ccc(OP2(=O)COCCO2)cc1 (stereo not drawn) | inactive: 19.8% [at 46.1 µM]
CC(=O)NC(SC(=S)N(C)C)C(Cl)(Cl)Cl (stereo not drawn) | inactive: -13.7%
O=[As](O)(c1ccccc1)c1ccc(O)cc1 | inactive: 20.9%
O=P(Nc1nc2ccccc2s1)(c1ccccc1)c1ccccc1 | inactive: -2.03%
CN(C)CCOC(=O)C(O)(c1ccccc1)C1CCCCC1 (stereo not drawn) | inactive: 16.8%
COc1ccc(N)c([N+](=O)[O-])c1[N+](=O)[O-] | inactive: 1.83% [at 46.1 µM]
CN(C)C1(CNC(=O)c2ccc(Cl)c(S(N)(=O)=O)c2)CCCCC1 | inactive: -3.33%
O=P(Nc1ccccn1)(c1ccc(Br)cc1)c1ccc(Br)cc1 | inactive: 1.21% [at 46.1 µM]
O=P(Nc1nccs1)(c1ccccc1)c1ccccc1 | inactive: 3.67%
CC(=O)Nc1ccc([As](=O)(O)O)c(O)c1 | inactive: 6.36%
COC(=O)C1(C)COP(=O)(NCc2ccccc2)OC1 (stereo not drawn) | inactive: -9.14%
CC(=O)c1ccc(N2CC2c2ccncc2)cc1 (stereo not drawn) | inactive: 7.71% [at 46.1 µM]
Cc1ccccc1CN(C)C(=O)COC(=O)C(O)(c1ccccc1)c1ccccc1 | inactive: 10.2%
CCc1cc(O)c([N+](=O)[O-])c(C)c1[N+](=O)[O-] | inactive: -8.09%
CC(C)(C)C(=O)NC(Sc1ccccc1)C(Cl)(Cl)Cl (stereo not drawn) | inactive: 2.6%
O=P1(Nc2nc3ccc(Cl)cc3s2)COc2ccccc2O1 (stereo not drawn) | inactive: 2.23%
CN(C)C(=O)Oc1noc2ccccc12 | inactive: -0.376%
Cc1ccccc1OP(=O)(Nc1ccccn1)Oc1ccccc1C | inactive: -17.9%
CC(=O)NC(SC(=S)N(CC(C)C)CC(C)C)C(Cl)(Cl)Cl (stereo not drawn) | inactive: -1.83%

Compound | activity change, negative = inhibition
Cc1ccc(OP(=O)(Nc2ccccn2)Oc2ccc(C)cc2)cc1 | inactive: -28%
COC(=O)c1cc2c(s1)N=C(c1ccccc1)N(C)P2(=O)N1CCOCC1 (stereo not drawn) | inactive: 3.79%
CCC(=O)N1C2C3N(C(=O)CC)C1C1N(C(=O)CC)C(C(N1C(=O)CC)N3C(=O)CC)N2C(=O)CC | inactive: -7.44%
CCN(CC)CCCOC(=O)C(O)(c1ccccc1)C1CCCCC1 (stereo not drawn) | inactive: -10.4%
O=P1(N(CCCl)CCCl)OCCC2CCCCN21 (stereo not drawn) | inactive: 1.87% [at 46.1 µM]
O=C(NC1CCS(=O)(=O)C1)NP(=S)(Oc1ccccc1)Oc1ccccc1 (stereo not drawn) | inactive: -16.3%
CCNC(=S)/N=C(\N)N[N+](=O)[O-] | inactive: 4.25% [at 46.1 µM]
Cc1ccc(NP(=O)(Oc2cccc(C)c2)Oc2cccc(C)c2)nc1 | inactive: 4.99%
c1ccc(-c2nn[nH]n2)c(-c2nn[nH]n2)c1 | inactive: 18.8%
CCN(N=Nc1nonc1N)c1nonc1N | inactive: 1.39%
Cc1ccc(NP(=O)(Oc2ccccc2F)Oc2ccccc2F)nc1 | inactive: -7.44%
CCOP(=O)(Nc1ccccc1)OCC | inactive: 9.6%
Cc1cc(SC(NC(=O)c2ccc(F)cc2)C(Cl)(Cl)Cl)ncn1 (stereo not drawn) | inactive: 17.2%
CCCC1OP(N)(=O)OCC1CC (stereo not drawn) | inactive: -18.8% [at 46.1 µM]
O=C(O)c1ccccc1[As](=O)(O)O | inactive: -10.8% [at 46.1 µM]
CC(=O)Nc1ccc([As](=O)(O)O)cc1 | inactive: 1.89%
O=P(Nc1nc2ccc(Cl)cc2s1)(c1ccccc1)c1ccccc1 | inactive: 11.2%
CC(C)CC(=O)NC(Sc1ccc(Cl)cc1)C(Cl)(Cl)Cl (stereo not drawn) | inactive: 2.86%
O=C(NC(Sc1ccncn1)C(Cl)(Cl)Cl)c1ccccc1 (stereo not drawn) | inactive: -2.04%
Oc1ccccc1CNc1ccccn1 | inactive: 16.5%
Cc1ccc(OP(=O)(Nc2nccs2)Oc2ccc(C)cc2)cc1 | inactive: 3.94%
COc1ccccc1OP(=O)(Nc1ccc(C)cn1)Oc1ccccc1OC | inactive: 6.63%

Compound | activity change, negative = inhibition
CN(C)CCOC(=O)C(O)(c1ccccc1)C1CCCC1 (stereo not drawn) | inactive: 17.1%
Clc1ccc(Cl)c(NC2=NCC(CBr)S2)c1 (stereo not drawn) | inactive: -1.33%
CN1CCCC(OC(=O)C(c2ccccc2)c2ccccc2)C1 (stereo not drawn) | inactive: 4.78%
Cc1ccc(N/C(=N/P(=O)(N2CCOCC2)N2CCOCC2)N2CCOCC2)cc1 | inactive: 2.09%
CN(C)C(=O)OCCc1n(C)cc[n+]1C | inactive: -4.51%
CC(C)=N/N=C(\N)N[N+](=O)[O-] | inactive: 19.2%
CC1CCN(C(=O)Oc2c(Cl)cc(Cl)c3cccnc23)CC1 | inactive: 2.81%
Nc1ccc([As](=O)(O)c2ccc(N)cc2)cc1 | inactive: 17.6%
CCN(/C(=N/P(=O)(N1CCOCC1)N1CCOCC1)N1CCOCC1)c1ccc(OC)cc1 | inactive: -1%
CC(=O)N1C2C3N(C(C)=O)C1C1N(C(C)=O)C(C(N1C(C)=O)N3C(C)=O)N2C(C)=O | inactive: 3.63%
O=[N+]([O-])c1cccc2n[nH]nc12 | inactive: -17.7%
O=[N+]([O-])c1cc([N+](=O)[O-])c(CCNc2ccccc2)c([N+](=O)[O-])c1 | inactive: -0.623%
Cc1ccc(NP(=O)(Oc2ccccc2)Oc2ccccc2)nc1 | inactive: 4.13% [at 46.1 µM]
COC(=O)C1(C)COP(=O)(Nc2ccccc2)OC1 (stereo not drawn) | inactive: 1.15% [at 46.1 µM]
O=[N+]([O-])c1ncn(CCn2ncnc2[N+](=O)[O-])n1 | inactive: -4.11%
O=P1(N(CCCl)CCCl)OCCCS1 (stereo not drawn) | inactive: 5.78% [at 46.1 µM]
Cc1cc(SC(NC=O)C(Cl)(Cl)Cl)ncn1 (stereo not drawn) | inactive: 17.1%
O=P(Nc1ccccn1)(c1cccc2ccccc12)c1cccc2ccccc12 | inactive: -1.69% [at 46.1 µM]
CCOC(=O)Nc1cccc([As](=O)(O)O)c1 | inactive: -8.07% [at 46.1 µM]
Cc1cc(SC(NC(=O)c2ccccc2)C(Cl)(Cl)Cl)nc(C(C)C)n1 (stereo not drawn) | inactive: -22.4%
CCC(C)N(CC(C)C)C(=S)SC(NC(C)=O)C(Cl)(Cl)Cl (stereo not drawn) | inactive: -4.66%
CCOC(=O)c1ccc(NC(=O)C(C)(CCl)SC)cc1 (stereo not drawn) | inactive: 12.6%

Compound | activity change, negative = inhibition
O=C(COc1ccccc1)OC1CN2CCC1CC2 (stereo not drawn) | inactive: 18%
COP1(=S)c2c(C)nn(CCC#N)c2N=C(c2ccc(F)cc2)N1C (stereo not drawn) | inactive: 9.1%
COc1ccc(N/C(=N/P(=O)(N2CCOCC2)N2CCOCC2)N2CCOCC2)cc1 | inactive: 8.72%
O=[N+]([O-])c1cc(Oc2ccc([N+](=O)[O-])cc2C(F)(F)F)cc([N+](=O)[O-])c1 | inactive: -14.1%
COc1cc(I)ccc1[As](=O)(O)O | inactive: 0.0747%
COc1ccc2nc(NP(=O)(c3ccccc3)c3ccccc3)sc2c1 | inactive: 10.9% [at 46.1 µM]
O=P1(N(CCCl)CCCl)OCCCN1CCCl (stereo not drawn) | inactive: 4.74%
Cc1cc(=O)[nH]c(N[N+](=O)[O-])n1 | inactive: -3.67% [at 46.1 µM]
O=C(OC1CN2CCC1CC2)C12CC3CC(CC(C3)C1)C2 (stereo not drawn) | inactive: 4.71%
CCN(CC)C(=S)SC(NC=O)C(Cl)(Cl)Cl (stereo not drawn) | inactive: -20.3%
O=C(OC1CN2CCC1CC2)c1cccc2[nH]cnc12 (stereo not drawn) | inactive: -2.3%
CC(C)NC(=O)NP(=O)(Oc1ccccc1)Oc1ccccc1 | inactive: 1.26%
COC(=O)C1(C)COP(=O)(N2CCCCCC2)OC1 (stereo not drawn) | inactive: -2.2% [at 46.1 µM]
ClCCSc1nnc(-c2cccnc2)o1 | inactive: 1.89%
Cc1ccc2nc3c(c(C)c2c1)CC(C(Cl)Cl)S3 (stereo not drawn) | inactive: 12.4%
O=[N+]([O-])c1ccc(-c2cc([N+](=O)[O-])c(O)c([N+](=O)[O-])c2)cc1 | inactive: 18.2%
O=[N+]([O-])c1ccc2c(c1)nnn2O | inactive: 10.2%
CCOP1(=S)c2c(C)nn(CCC#N)c2N=C(c2ccc(F)cc2)N1C (stereo not drawn) | inactive: 9.45%
CN(C(=O)Cc1ccccc1)[C@@H]1CC[C@]2(CCCO2)C[C@H]1N1CCCC1 | inactive: -34.4%
O=C(O)COc1ccc([As](=O)(O)O)cc1[N+](=O)[O-] | inactive: -5.19% [at 46.1 µM]
Nc1ccccc1[As](=O)(O)c1ccccc1 | inactive: -13.9%
O=P(Nc1nccs1)(c1ccccc1)c1nc2ccccc2s1 (stereo not drawn) | inactive: -27.9%

Compound | activity change, negative = inhibition
CCOP1(=S)c2c(C)nn(CCC#N)c2N=C(c2ccccc2F)N1C (stereo not drawn) | inactive: 11.8%
CCOP(=O)(Nc1cccc2ccccc12)OCC | inactive: 7.22% [at 46.1 µM]
Cc1ccc(NCCc2c([N+](=O)[O-])cc([N+](=O)[O-])cc2[N+](=O)[O-])cc1 | inactive: -4.27%
Cc1cccc(OCC(=O)OC2CN3CCC2CC3)c1 (stereo not drawn) | inactive: 4.95%
COc1cc(C(=O)NCC2(N3CCOCC3)CCCCC2)cc(Cl)c1OC(C)C | inactive: -10.3%
O=C(OC1CN2CCC1CC2)c1ccc(Cl)cc1 (stereo not drawn) | inactive: 15.9% [at 46.1 µM]
CC1(CBr)Cn2c(nc3ccccc3c2=O)S1 (stereo not drawn) | inactive: -10.7%
CC(C)/C=N\N=C(\N)N[N+](=O)[O-] | inactive: 8.42%
COc1ccccc1CNC(=O)COC(=O)C(O)(c1ccccc1)c1ccccc1 | inactive: -4.73%
Clc1n[nH]nc1-c1nn[nH][15n]1 | inactive: 2.2%
CN(CCCl)Cc1cc(Cl)c(NC2=NCCN2)c(Cl)c1 | inactive: -10.6%
O=P1(Nc2ccccn2)COc2ccccc2OC1 | inactive: 11.5%
O=P1(Nc2ccc(Br)cn2)COc2ccccc2OC1 | inactive: 10.7%
Cc1ccc(OCC(=O)OC2CN3CCC2CC3)cc1 (stereo not drawn) | inactive: -4.85%
O=P1(Nc2ncccn2)COc2ccccc2OC1 | inactive: -6.37%
CCCC1OP(=O)(Nc2ccccc2)OCC1CC (stereo not drawn) | inactive: -12.5% [at 46.1 µM]
O=C(/C=C/c1ccccc1)OC1CN2CCC1CC2 (stereo not drawn) | inactive: 1.45%
CN(C)C1(CNC(=O)c2ccc(S(C)(=O)=O)cc2)CCCCC1 | inactive: -20.9%
COc1cc(C2NCCC3(OCCO3)C2(C)C)cc(OC)c1OC.O=[N+]([O-])c1cc([N+](=O)[O-])c(O)c([N+](=O)[O-])c1 (stereo not drawn) | inactive: 11.3%
Cc1nn(-c2ccccc2)c2c1P(=O)(N1CCOCC1)N(C)C(c1ccccc1)=N2 (stereo not drawn) | inactive: 3.4%

— PubChem BioAssay AID540256 (National Center for Advancing Translational Sciences (NCATS), 2011)
